The nature of this series: general procedure: solution-phase peptide synthesis; HATU/DIPEA. Particulars: late stage modification step, total yield of five steps.

In US11702444B2 (Shenzhen Institute of Geriatrics, priority 2020, dated 2023) one finds step yield data, which are given here for 1 substance.

Turning to Tubulysin U, the step yield was determined as 80%.
